Compound potency records, mixed from different reports. Data source: NIAID ChemDB in PubChem.

Common to all: growth or infection tests

Zone: diameter of growth inhibition.

SMILES | species | strain or isolate | mutations | read by | measure | tested at | value
CC(=O)N/N=C/c1ccc(-n2ccnc2)cc1 | Candida glabrata | ATCC 2001 | - | broth dilution | MIC50 | - | >1100 µM
C[C@H]1[C@H](O)[C@@H](C)/C=C/C=C/C=C/C=C/C=C/C=C/C=C/[C@H](O[C@@H]2O[C@H](C)[C@@H](O)[C@H](N)[C@@H]2O)C[C@@H]2O[C@](O)(C[C@@H](O)C[C@@H](O)CC[C@H](O)[C@@H](O)C[C@@H](O)CC(=O)O[C@H]1C)C[C@H](O)[C@H]2C(=O)O | Candida krusei | 17 isolates | - | - | MIC90 | - | 2 µg/mL
C[C@@H]1[C@H](O)[C@@H](C)/C=C/C=C/CC/C=C/C=C/C=C/C=C/C(O[C@H]2O[C@H](C)[C@@H](O)[C@H](N)[C@@H]2O)CC2O[C@](O)(CC(O)C(O)CCC(O)CC(O)CC(O)CC(=O)O[C@H]1C)CC(O)C2C(=O)O | Candida guilliermondii | Clinical isolates | - | broth dilution | MIC | - | 2 µg/mL
C/C(=N\NC(=O)c1ccccc1)c1ccc(-n2ccnc2)cc1 | Candida glabrata | ATCC 2001 | - | broth dilution | MIC50 | - | >821.4 µM
O=C(OC1Cc2c(O)cc(O)cc2OC1c1cc(O)c(O)c(O)c1)c1cc(O)c(O)c(O)c1 | Candida tropicalis | Clinical isolate 5 | - | broth dilution | MIC50 | - | >128 µg/mL
C=CCOc1ccc(C2CC(=O)c3c(O)cc(O)cc3O2)cc1 | Candida krusei | - | - | agar diffusion / agar | zone | 100 µg/mL | 0 mm
O=C(Cc1ccccc1[N+](=O)[O-])NCCc1ccc2c(c1)OCO2 | Candida albicans | Clinical isolate | Fluconazole-resistant | broth dilution | MIC80 | - | >64 µg/mL
O=C(O)/C=C/c1ccccc1 | Candida lusitaniae | PYCC 2705 | - | broth dilution / turbidity | EC50 | - | 0.1 µM
COc1cccc(C[N+]2(C)CCc3cc4c(cc3C2)OCO4)c1OC.[Br-] | Candida albicans | Clinical isolate | Fluconazole-resistant | broth dilution | MIC80 | - | >64 µg/mL
COc1cc(C2CC(=O)c3c(O)cc(O)cc3O2)ccc1OCC=C(C)C | Candida spp. | Candida inconspicua | - | agar diffusion / agar | zone | 100 µg/mL | 0 mm
NC(=S)N/N=C/c1cnc[nH]1 | Candida glabrata | ATCC 2001 | - | broth dilution | MIC50 | - | >1480 µM
CC[C@@H]([C@H](C)O)n1ncn(-c2ccc(N3CCN(c4ccc(OC[C@@H]5CO[C@@](Cn6cncn6)(c6ccc(F)cc6F)C5)cc4)CC3)cc2)c1=O | Candida guilliermondii | Clinical isolates | - | broth dilution | MIC | - | 0.25 µg/mL
CCCC1=NOC(CCCCCCCCC(=O)OC)C1 | Candida dubliniensis | - | - | agar | MFC | - | 256 µg/mL
O=C(N/N=C\n1ccnc1)c1ccc(Cl)cc1 | Candida glabrata | ATCC 2001 | - | broth dilution | MIC50 | - | 15.7 µM
C[C@H](Cc1ccc(O)c(O)c1)[C@@H](C)Cc1ccc(O)c(O)c1 | Candida kefyr | CCC 123-2000 | - | broth dilution | MIC80 | - | 250 µg/mL
CO[C@H]1C[C@H](O[C@H]2CC[C@@]3(C)C(=CC[C@H]4C5=CC(=O)[C@@H]6[C@@H](C)OC(=O)[C@]56CC[C@@H]43)C2)O[C@H](C)[C@H]1O[C@H]1C[C@H](OC)[C@H](O[C@@H]2C[C@@H](OC)[C@@H](O[C@@H]3O[C@H](CO[C@@H]4O[C@H](CO)[C@@H](O)[C@H](O)[C@H]4O)[C@@H](O)[C@H](O)[C@H]3O)[C@H](C)O2)[C@@H](C)O1 | Candida guilliermondii | - | - | broth dilution / turbidity | EC50 | - | >100 µg/mL
OC(Cn1cncn1)(Cn1cncn1)c1ccc(F)cc1F | Candida albicans | YL 371 | - | broth dilution | MIC | - | >512 µg/mL
C[C@H]1[C@H](O)[C@@H](C)/C=C/C=C/C=C/C=C/C=C/C=C/C=C/[C@H](O[C@@H]2O[C@H](C)[C@@H](O)[C@H](N)[C@@H]2O)C[C@@H]2O[C@](O)(C[C@@H](O)C[C@@H](O)CC[C@H](O)[C@@H](O)C[C@@H](O)CC(=O)O[C@H]1C)C[C@H](O)[C@H]2C(=O)O | Candida guilliermondii | Clinical isolates | - | broth dilution | MIC | - | 0.5 µg/mL
C[C@@H]1[C@H](O)[C@@H](C)/C=C/C=C/CC/C=C/C=C/C=C/C=C/C(O[C@H]2O[C@H](C)[C@@H](O)[C@H](N)[C@@H]2O)CC2O[C@](O)(CC(O)C(O)CCC(O)CC(O)CC(O)CC(=O)O[C@H]1C)CC(O)C2C(=O)O | Candida tropicalis | LM 759 | - | broth dilution | MIC100 | - | 64 µg/mL
COc1ccc2c(c1OC)C[N+]1(Cc3ccccc3Cl)CCc3cc4c(cc3C1C2)OCO4.[Br-] | Candida albicans | Clinical isolate | Fluconazole-resistant | broth dilution | MIC80 | - | >64 µg/mL
CO[C@H]1C[C@H](O[C@H]2CC[C@@]3(C)C(=CC[C@@H]4[C@@H]3CC[C@]35C(=O)O[C@H](C)[C@H]3C(=O)C[C@]45O)C2)O[C@H](C)[C@H]1O[C@H]1C[C@H](OC)[C@H](O[C@@H]2C[C@@H](OC)[C@@H](O)[C@H](C)O2)[C@@H](C)O1 | Candida guilliermondii | - | - | broth dilution / turbidity | EC50 | - | 50 µg/mL
CCC(C)n1ncn(-c2ccc(N3CCN(c4ccc(OC[C@H]5CO[C@](Cn6cncn6)(c6ccc(Cl)cc6Cl)O5)cc4)CC3)cc2)c1=O | Candida krusei | 17 isolates | - | - | MIC50 | - | 1 µg/mL
COC(=O)/C=C1/NN=C(c2ccccn2)N(c2ccccn2)C1=O | Candida spp. | Clinical isolate | - | agar diffusion | MIC50 | - | 32 µg/mL
O=C(Cc1cccc2ccccc12)NCCc1ccc2c(c1)OCO2 | Candida albicans | Clinical isolate | Fluconazole-resistant | broth dilution | MIC80 | - | >64 µg/mL
C[C@@H](c1ncncc1F)[C@](O)(Cn1cncn1)c1ccc(F)cc1F | Candida guilliermondii | 24 clinical isolates | - | broth dilution | MIC90 | - | 0.125 µg/mL
C/C(=N\NC(=O)c1ccc(Cl)cc1)c1ccc(-n2ccnc2)cc1 | Candida glabrata | ATCC 2001 | - | broth dilution | MIC50 | - | 1.4 µM
C[C@@H]1[C@H](O)[C@@H](C)/C=C/C=C/CC/C=C/C=C/C=C/C=C/C(O[C@H]2O[C@H](C)[C@@H](O)[C@H](N)[C@@H]2O)CC2O[C@](O)(CC(O)C(O)CCC(O)CC(O)CC(O)CC(=O)O[C@H]1C)CC(O)C2C(=O)O | Candida spp. | MTCC 1962 | - | - | MIC | - | 150 µg/mL
C/C(=N\NC(N)=S)c1ccc(-n2ccnc2)cc1 | Candida glabrata | ATCC 2001 | - | broth dilution | MIC50 | - | >964 µM
CO[C@H]1C[C@H](O[C@H]2CC[C@@]3(C)C(=CC[C@H]4C5=CC(=O)[C@@H]6[C@@H](C)OC(=O)[C@]56CC[C@@H]43)C2)O[C@H](C)[C@H]1O | Candida guilliermondii | - | - | broth dilution / turbidity | EC50 | - | >100 µg/mL
O=Cc1cccc(O)c1O | Candida parapsilosis | PYCC 2545 | - | broth dilution / turbidity | EC50 | - | 0.09 µM
COc1cccc(C[N+]2=C(c3ccc(F)cc3F)c3cc4c(cc3CC2)OCO4)c1OC.[Br-] | Candida albicans | Clinical isolate | Fluconazole-resistant | broth dilution | MIC80 | - | >64 µg/mL
Cc1ccc(C(C)C)c(O)c1 | Candida lusitaniae | PYCC 2705 | - | broth dilution / turbidity | EC50 | - | 0.18 µM
CC(C)=CCOc1ccc(C2CC(=O)c3c(O)cc(O)cc3O2)cc1O | Candida dubliniensis | - | - | agar diffusion / agar | zone | 100 µg/mL | 0 mm
CNC(=S)N/N=C(\C)c1ccc(-n2ccnc2)cc1 | Candida glabrata | ATCC 2001 | - | broth dilution | MIC50 | - | >915 µM
CO[C@H]1C[C@H](O[C@H]2CC[C@@]3(C)C(=CC[C@@H]4[C@@H]3CC[C@]35C(=O)O[C@H](C)[C@H]3C(=O)C[C@]45O)C2)O[C@H](C)[C@H]1O[C@H]1C[C@H](OC)[C@H](O[C@H]2C[C@H](OC)[C@H](O[C@H]3C[C@H](OC)[C@H](O[C@@H]4C[C@@H](OC)[C@@H](OC5O[C@H](CO)[C@@H](O)[C@H](O)[C@H]5O)[C@H](C)O4)[C@@H](C)O3)[C@@H](C)O2)[C@@H](C)O1 | Candida guilliermondii | - | - | broth dilution / turbidity | EC50 | - | 50 µg/mL

A second listing of 4 rows from above:

SMILES | species | strain or isolate | mutations | read by | measure | tested at | value
C[C@@H]1[C@H](O)[C@@H](C)/C=C/C=C/CC/C=C/C=C/C=C/C=C/C(O[C@H]2O[C@H](C)[C@@H](O)[C@H](N)[C@@H]2O)CC2O[C@](O)(CC(O)C(O)CCC(O)CC(O)CC(O)CC(=O)O[C@H]1C)CC(O)C2C(=O)O | Candida spp. | MTCC 1962 | - | - | MIC | - | 150 µg/mL
COc1cccc(C[N+]2=C(c3ccc(F)cc3F)c3cc4c(cc3CC2)OCO4)c1OC.[Br-] | Candida albicans | Clinical isolate | Fluconazole-resistant | broth dilution | MIC80 | - | >64 µg/mL
O=C(OC1Cc2c(O)cc(O)cc2OC1c1cc(O)c(O)c(O)c1)c1cc(O)c(O)c(O)c1 | Candida tropicalis | Clinical isolate 5 | - | broth dilution | MIC50 | - | >128 µg/mL
CNC(=S)N/N=C(\C)c1ccc(-n2ccnc2)cc1 | Candida glabrata | ATCC 2001 | - | broth dilution | MIC50 | - | >915 µM

ECn: concentration that inhibits the pathogen or its effect by n%. An empty or dashed field is not shown. A number after MIC or MFC names an inhibition level or a share of isolates. Neighbouring rows are from separate reports.